{"source": "patent US20230015525A1", "about": "“Anaerobic Blood Storage and Pathogen Inactivation Method” (Hemanext Inc., priority 2019, published 2023)", "test_system": "RBCs", "assay": "Levels of GSH and GSSG in RBCs at different pre-storage % SO2, UHPLC/MS (Example 13)", "type": "cell-based", "details": "for GSH/GSSG / concentration in RBC, MEAN (4): Day 2", "note": "Several values for one entry are separate records, joined by “and”; a condition that tells them apart may be missing. Identical values can stand only once."}
{"molecule": "N[C@@H](CCC(=O)N[C@@H](CS)C(=O)NCC(=O)O)C(=O)O", "note": "[GSH, glutathione]", "values": [{"measurement": "maximum level of GSH in RBCs", "setting": "5% SO2", "value": 1.6, "unit": "mM"}, {"measurement": "maximum level of GSH in RBCs", "setting": "20% SO2", "value": 1.4, "unit": "mM"}, {"measurement": "GSH/GSSG", "setting": "5% SO2", "value": 4.3}, {"measurement": "concentration in RBC, MEAN (4)", "setting": "5% SO2", "value": "1,600±511 μM and 1,604 μM"}, {"measurement": "GSH/GSSG", "setting": "20% SO2", "value": 2.5}, {"measurement": "concentration in RBC, MEAN (4)", "setting": "20% SO2", "value": "1,374 μM"}, {"measurement": "GSH/GSSG", "setting": "+95% SO2", "value": 2.1}, {"measurement": "concentration in RBC, MEAN (4)", "setting": "+95% SO2", "value": "907 ± 525 µM and 907 µM"}, {"measurement": "GSH/GSSG", "setting": "Control (60% SO2)", "value": 1.6}, {"measurement": "concentration in RBC, MEAN (4)", "setting": "Control (60% SO2)", "value": 765, "unit": "µM"}]}
